Source: patent publication US20050222408A1, “Heterocyclic amides with anti-tuberculosis activity” (priority 2003, published 2005)

Tested on: Vero cells
Assay: Cytotoxicity, alamar blue assay against Vero cells
Format: cell-based
Details: Table 1; ToxIC50 over TB MIC

SMILES	Therap. Index
O=C(Nc1cccc(Br)c1)c1ccc([N+](=O)[O-])o1 [Compound 11, 5-Nitro-furan-2-carboxylic acid(3-bromo-phenyl)-amide]	9.6
COc1ccc(CCNC(=O)c2ccc([N+](=O)[O-])o2)cc1 [Compound 28, 5-Nitro-furan-2-carboxylic acid [2-(4-methoxy-phenyl)-ethyl]-amide]	25.6
O=C(NC1CCCCC1)c1ccc([N+](=O)[O-])o1 [Compound 15, 5-Nitro-furan-2-carboxylic acid cyclohexylamide]	2.9
COc1ccc(CCNC(=O)c2ccc([N+](=O)[O-])o2)cc1OC [Compound 31, 5-Nitro-furan-2-carboxylic acid [2-(3,4-dimethoxy-phenyl)-ethyl]-amide]	68.6
CCOC(=O)c1ccc(C(=O)Nc2cccc(OC)c2)o1 [Compound 40, 5-(3-Methoxy-phenylcarbamoyl)-furan-2-carboxylic acid ethyl ester]	0.5
CC(NC(=O)c1ccc([N+](=O)[O-])o1)c1ccccc1 (stereo not shown) [Compound 29, 5-Nitro-furan-2-carboxylic acid(1-phenyl-ethyl)-amide]	16.0
COc1ccc(CNC(=O)c2ccc(Br)o2)cc1 [Compound 32, 5-Bromo-furan-2-carboxylic acid 4-methoxy-benzylamide]	0.5
O=C(NCc1ccco1)c1ccc([N+](=O)[O-])o1 [Compound 18, 5-Nitro-furan-2-carboxylic acid(furan-2-ylmethyl)-amide]	0.7
COc1cccc(NC(=O)c2ccc(S(=O)(=O)c3ccccc3)o2)c1 [Compound 39, 5-Benzenesulfonyl-furan-2-carboxylic acid(3-methoxy-phenyl)-amide]	4.1
O=C(Nc1cccc(F)c1)c1ccc([N+](=O)[O-])o1 [Compound 12, 5-Nitro-furan-2-carboxylic acid(3-fluoro-phenyl)-amide]	11.6
O=C(Nc1cccc(O)c1)c1ccc([N+](=O)[O-])o1 [Compound 35, 5-Nitro-furan-2-carboxylic acid(3-hydroxy-phenyl)-amide]	7.8
COc1cc(CNC(=O)c2ccc([N+](=O)[O-])o2)cc(OC)c1OC [Compound 24, 5-Nitro-furan-2-carboxylic acid 3,4,5-trimethoxy-benzylamide]	29.5
CC(NC(=O)c1ccc([N+](=O)[O-])o1)c1ccccc1 (stereo not shown) [Compound 30, 5-Nitro-furan-2-carboxylic acid(1-phenyl-ethyl)-amide]	7.6
COc1cccc(NC(=O)c2ccc([S+]([O-])c3ccccc3)o2)c1 (stereo not shown) [Compound 38, 5-Benzenesulfinyl-furan-2-carboxylic acid(3-methoxy-phenyl)-amide]	10.4
COc1cccc(NC(=O)c2ccc([N+](=O)[O-])o2)c1 [Compound 13, 5-Nitro-furan-2-carboxylic acid(3-methoxy-phenyl)-amide]	23.3
O=C(NC12CC3CC(CC(C3)C1)C2)c1ccc([N+](=O)[O-])o1 [Compound 16, 5-Nitro-furan-2-carboxylic acid adamantan-1-ylamide]	3.0
COc1cccc(NC(=O)c2ccc(Br)o2)c1 [Compound 33, 5-Bromo-furan-2-carboxylic acid(3-methoxy-phenyl)-amide]	0.6
COc1ccc(CNC(=O)c2ccc([N+](=O)[O-])o2)cc1OC [Compound 23, 5-Nitro-furan-2-carboxylic acid 3,4-dimethoxy-benzylamide]	90.9
O=C(NCCc1ccccc1)c1ccc([N+](=O)[O-])o1 [Compound 27, 5-Nitro-furan-2-carboxylic acid phenethyl-amide]	15.7
O=C(NCc1ccccc1Cl)c1ccc([N+](=O)[O-])o1 [Compound 21, 5-Nitro-furan-2-carboxylic acid 2-chloro-benzylamide]	7.3
O=C(Nc1cccc(Cl)c1)c1ccc([N+](=O)[O-])o1 [Compound 10, 5-Nitro-furan-2-carboxylic acid(3-chloro-phenyl)-amide]	8.6
COc1ccc(NC(=O)c2ccc([N+](=O)[O-])o2)cc1 [Compound 14, 5-Nitro-furan-2-carboxylic acid(4-methoxy-phenyl)-amide]	53.6
N#Cc1ccc(NC(=O)c2ccc([N+](=O)[O-])o2)cc1 [Compound 19, 5-Nitro-furan-2-carboxylic acid(4-cyano-phenyl)-amide]	4.4
COc1cccc(NC(=O)c2ccc(Sc3ccccc3)o2)c1 [Compound 36, 5-Phenylsulfanyl-furan-2-carboxylic acid(3-methoxy-phenyl)-amide]	1.0
COc1ccc(CNC(=O)c2ccc([N+](=O)[O-])o2)cc1 [Compound 20, 5-Nitro-furan-2-carboxylic acid 4-methoxy-benzylamide]	163.6
COc1ccc(CNC(=O)c2ccc([N+](=O)[O-])o2)c(OC)c1 [Compound 22, 5-Nitro-furan-2-carboxylic acid 2,4-dimetboxy-benzylamide]	13.5
O=C(Nc1ccccc1)c1ccc([N+](=O)[O-])o1 [Compound 17, 5-Nitro-furan-2-carboxylic acid phenylamide]	2.7
O=C(NC1CCc2ccccc21)c1ccc([N+](=O)[O-])o1 (stereo not shown) [Compound 26, 5-Nitro-furan-2-carboxylic acid indan-1-ylamide]	3.3
